# Test results: the supplement of paper PMC12637763
# Positions count from the first letter of the chain named. The list shows a part of the results. Env chains of viruses from a treatment-interruption trial, translated from the printed DNA. IC50 / IC80 of two broadly neutralizing antibodies; lower = more sensitive virus; >50 µg/ml means not reached and <0.001 µg/ml is below the lowest dose. No active / inactive call.
# B1: HIV-1 Env, rebound clone, antibody arm (protein)
# chain: MRAKGIRKNCQDLLKGGILLLGILMICSAAGNLWVTVYYGVPVWKDATTTLFCASDAKGYSKEAHNVWATHACVPTDPDPREIVMGNVTENFNMWKNDMVDQMHEDIISLWDQSLKPCVKLTPLCVTLNCTNLNITNLNNTNSNTSDTNNNTSSENGSEEMKNCSFNVTTIKGKYQKEYAVLYKLDLVPIDNNDNTSYMLINCNTSVITQACPKISFEPIPIHYCAPAGFAILKCNNKTFNGTGPCTNVSSVQCTHGIRPVVSTQLLLNGSLAEEEVVIRSENFTDNAKTIIVQLKDPIQINCTRPNNNTRKSIHIGPGRAFYATGQIIGNIRQAYCNISKEQWNEALNQTVRKLREQFGNKTMIFNQSSGGDPEIVMHTFNCGGEFFYCNTTQLFNSTWYDTTNSTDSNNNTIKLPCRIKQVINRWQEVGKAMYAPPISGPIRCSSNITGLLLVRDGGNNNSSNSSETFRPGGGNMKDNWRSELYKYKVVKIEPLGVAPTKAKRRVVQRERRAVTLGAMFLGFLGTAGSTMGAASLTLTVQARQLLSGIVQQQSNLLKAIEVHQHMLQLTVWGIKQLQARVLAVERYLKDQQLLGIWGCSGKLICTTTVPWNASWSKKNLSEIWDNMTWIEWEREIQNYTEEIYSLIEKSQNQQAKNEQELLELDKWANLWNWFDITNWLWYIKIFIMIVGGLIGLRIVFTVLSIVNRVRQGYSPLSFQTRLPTQRGPDRPGGTEEEGGERDRDTSRPLVDGFLAIIWVDLRSLFLFSYHRLRDLLLIVTRIVETLGRRGWELLKYWWNLLQYWSQELKNSAISLLNATAIAVAEGTDRVIELIQRAGRAIIHIPRRIRQGLESALL
# B2: HIV-1 Env, rebound clone, antibody arm (protein)
# chain: B1 chain with M434V, K559R
# B3: HIV-1 Env, rebound clone, antibody arm (protein)
# chain: B1 chain with D408E, K559R
# How the values were obtained:
# [1] = target: antibody 10-1074; assay: neutralization IC50; higher = virus less sensitive to the antibody
# Description: (§1)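 Pseudovirus bearing the Env chain mixed with antibody, from 50 µg/ml in fivefold dilutions, on TZM-bl reporter cells, in duplicate.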
# [2] = target: antibody 3BNC117; assay: as above
# Description: as §1
# [3] = target: antibody 10-1074; assay: neutralization IC80; higher = virus less sensitive to the antibody
# Description: as §1
# [4] = target: antibody 3BNC117; assay: as above
# Description: as §1
Binder,neutralization IC50 [1],neutralization IC50 [2],neutralization IC80 [3],neutralization IC80 [4]
B1,> 50 µg/mL,0.584 µg/mL,> 50 µg/mL,1.55 µg/mL
B2,> 50 µg/mL,0.138 µg/mL,> 50 µg/mL,0.458 µg/mL
B3,> 50 µg/mL,0.433 µg/mL,> 50 µg/mL,1.46 µg/mL
